PubChem BioAssay AID1224833 | University of Georgia, 2016
Test: 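Human genes whose knock-down alters rotavirus replication in monkey cells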 (primary screen). Cells: monkey MA104 kidney cells. Knock-down reagent: siRNA pool against human genes, 50 nM. Duration: 48 h knock-down before infection; read 24 h after infection. Treatment: infection with rotavirus strain RV3 two days after transfection; infectious dose for this stage not given. Measured: 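Rotavirus antigen per well by fluorescent immunoassay, normalised to non-targeting control wells on each plate and given as a standard z-score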. Reading the numbers: z-score vs non-targeting control: higher = more rotavirus replication than with non-targeting control. Call rule: In these data the active calls have z-score vs non-targeting control at about -1 or lower, or at about 1 or higher. Calls: active = z-score beyond 1 either way; inactive = z-score within 1 of zero.
Here is a random part of about 12,000 reagents tested. About 5,600 of them (46%) count as active. 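Active calls cover z-scores past 1 in both directions, so they include lowered as well as raised rotavirus replication.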 No sequences are given here.

{"gene": "ZNF610 (GeneID 162963)", "PubChem SID": "SID329583222", "z-score vs non-targeting control": -1.16, "activity call": "active"}
{"gene": "H1-1 (GeneID 3024)", "PubChem SID": "SID329573923", "z-score vs non-targeting control": -2.49, "activity call": "active"}
{"gene": "GBP3 (GeneID 2635)", "PubChem SID": "SID329573732", "z-score vs non-targeting control": 0.821, "activity call": "inactive"}
{"gene": "CDH24 (GeneID 64403)", "PubChem SID": "SID329580626", "z-score vs non-targeting control": 0.0382, "activity call": "inactive"}
{"gene": "STXBP2 (GeneID 6813)", "PubChem SID": "SID329575521", "z-score vs non-targeting control": 0.761, "activity call": "inactive"}
{"gene": "SPINT2 (GeneID 10653)", "PubChem SID": "SID329577301", "z-score vs non-targeting control": 1.51, "activity call": "active"}
{"gene": "FAM50A (GeneID 9130)", "PubChem SID": "SID329576438", "z-score vs non-targeting control": -1.26, "activity call": "active"}
{"gene": "SPAG4 (GeneID 6676)", "PubChem SID": "SID329575454", "z-score vs non-targeting control": -0.302, "activity call": "inactive"}
{"gene": "PARD6B (GeneID 84612)", "PubChem SID": "SID329581664", "z-score vs non-targeting control": 0.996, "activity call": "inactive"}
{"gene": "PLXNA1 (GeneID 5361)", "PubChem SID": "SID329574872", "z-score vs non-targeting control": 0.997, "activity call": "inactive"}
{"gene": "WBP1 (GeneID 23559)", "PubChem SID": "SID329578062", "z-score vs non-targeting control": -0.472, "activity call": "inactive"}
{"gene": "POLR2J3 (GeneID 548644)", "PubChem SID": "SID329584662", "z-score vs non-targeting control": 0.793, "activity call": "inactive"}
{"gene": "MAGEA6 (GeneID 4105)", "PubChem SID": "SID329574372", "z-score vs non-targeting control": -2.68, "activity call": "active"}
{"gene": "IPO8 (GeneID 10526)", "PubChem SID": "SID329577216", "z-score vs non-targeting control": -0.981, "activity call": "inactive"}
{"gene": "HOXC9 (GeneID 3225)", "PubChem SID": "SID329574023", "z-score vs non-targeting control": -2.36, "activity call": "active"}
{"gene": "BAHCC1 (GeneID 57597)", "PubChem SID": "SID329580314", "z-score vs non-targeting control": -0.765, "activity call": "inactive"}
{"gene": "SEZ6L2 (GeneID 26470)", "PubChem SID": "SID329578381", "z-score vs non-targeting control": -1.25, "activity call": "active"}
{"gene": "MIA (GeneID 8190)", "PubChem SID": "SID329576023", "z-score vs non-targeting control": 0.395, "activity call": "inactive"}
{"gene": "NUDCD1 (GeneID 84955)", "PubChem SID": "SID329581794", "z-score vs non-targeting control": 0.904, "activity call": "inactive"}
{"gene": "NLRP13 (GeneID 126204)", "PubChem SID": "SID329582533", "z-score vs non-targeting control": 0.632, "activity call": "inactive"}

The list goes on; the last 2 above are carried over.
{"gene": "NUDCD1 (GeneID 84955)", "PubChem SID": "SID329581794", "z-score vs non-targeting control": 0.904, "activity call": "inactive"}
{"gene": "NLRP13 (GeneID 126204)", "PubChem SID": "SID329582533", "z-score vs non-targeting control": 0.632, "activity call": "inactive"}
{"gene": "VWCE (GeneID 220001)", "PubChem SID": "SID329583549", "z-score vs non-targeting control": -1.33, "activity call": "active"}
{"gene": "RGS1 (GeneID 5996)", "PubChem SID": "SID329575120", "z-score vs non-targeting control": -1.82, "activity call": "active"}
{"gene": "PEX14 (GeneID 5195)", "PubChem SID": "SID329574803", "z-score vs non-targeting control": 0.904, "activity call": "inactive"}
{"gene": "MICU3 (GeneID 286097)", "PubChem SID": "SID329583966", "z-score vs non-targeting control": -1.63, "activity call": "active"}
{"gene": "IFI30 (GeneID 10437)", "PubChem SID": "SID329577155", "z-score vs non-targeting control": 1.01, "activity call": "active"}
{"gene": "CROCC (GeneID 9696)", "PubChem SID": "SID329576734", "z-score vs non-targeting control": -1.27, "activity call": "active"}
{"gene": "SCUBE2 (GeneID 57758)", "PubChem SID": "SID329580379", "z-score vs non-targeting control": 1.48, "activity call": "active"}
{"gene": "SORBS1 (GeneID 10580)", "PubChem SID": "SID329577255", "z-score vs non-targeting control": -1.67, "activity call": "active"}
{"gene": "ZDHHC1 (GeneID 29800)", "PubChem SID": "SID329578690", "z-score vs non-targeting control": 0.491, "activity call": "inactive"}
{"gene": "TMEM165 (GeneID 55858)", "PubChem SID": "SID329579909", "z-score vs non-targeting control": -1.95, "activity call": "active"}
{"gene": "OR10S1 (GeneID 219873)", "PubChem SID": "SID329583527", "z-score vs non-targeting control": 0.24, "activity call": "inactive"}
{"gene": "HSPB7 (GeneID 27129)", "PubChem SID": "SID329578502", "z-score vs non-targeting control": 0.212, "activity call": "inactive"}
{"gene": "ARHGAP11A (GeneID 9824)", "PubChem SID": "SID329576817", "z-score vs non-targeting control": 0.422, "activity call": "inactive"}
{"gene": "CYP3A7 (GeneID 1551)", "PubChem SID": "SID329573334", "z-score vs non-targeting control": -0.147, "activity call": "inactive"}
{"gene": "PCNT (GeneID 5116)", "PubChem SID": "SID329574765", "z-score vs non-targeting control": -0.883, "activity call": "inactive"}
{"gene": "CHD1L (GeneID 9557)", "PubChem SID": "SID329576657", "z-score vs non-targeting control": 2.24, "activity call": "active"}
{"gene": "FCAMR (GeneID 83953)", "PubChem SID": "SID329581488", "z-score vs non-targeting control": 1.44, "activity call": "active"}
{"gene": "DRC5 (GeneID 202500)", "PubChem SID": "SID329583448", "z-score vs non-targeting control": -0.954, "activity call": "inactive"}
{"gene": "SLC7A6 (GeneID 9057)", "PubChem SID": "SID329576398", "z-score vs non-targeting control": -0.703, "activity call": "inactive"}
{"gene": "PHACTR4 (GeneID 65979)", "PubChem SID": "SID329580766", "z-score vs non-targeting control": -0.562, "activity call": "inactive"}
{"gene": "GNPTAB (GeneID 79158)", "PubChem SID": "SID329580852", "z-score vs non-targeting control": 2.47, "activity call": "active"}
{"gene": "SYT6 (GeneID 148281)", "PubChem SID": "SID329582974", "z-score vs non-targeting control": 0.0381, "activity call": "inactive"}
{"gene": "MRPL37 (GeneID 51253)", "PubChem SID": "SID329578986", "z-score vs non-targeting control": -1.41, "activity call": "active"}
{"gene": "DNAJC13 (GeneID 23317)", "PubChem SID": "SID329577938", "z-score vs non-targeting control": -0.282, "activity call": "inactive"}
{"gene": "SLC3A1 (GeneID 6519)", "PubChem SID": "SID329575347", "z-score vs non-targeting control": 0.981, "activity call": "inactive"}
{"gene": "SELENOV (GeneID 348303)", "PubChem SID": "SID329584174", "z-score vs non-targeting control": 1.38, "activity call": "active"}
{"gene": "TFR2 (GeneID 7036)", "PubChem SID": "SID329575620", "z-score vs non-targeting control": 0.911, "activity call": "inactive"}
{"gene": "OR5W2 (GeneID 390148)", "PubChem SID": "SID329584392", "z-score vs non-targeting control": -0.0172, "activity call": "inactive"}
{"gene": "EFNB2 (GeneID 1948)", "PubChem SID": "SID329573495", "z-score vs non-targeting control": 0.403, "activity call": "inactive"}
{"gene": "NXT2 (GeneID 55916)", "PubChem SID": "SID329579933", "z-score vs non-targeting control": 2.67, "activity call": "active"}
{"gene": "NACA (GeneID 4666)", "PubChem SID": "SID329574544", "z-score vs non-targeting control": 0.104, "activity call": "inactive"}
{"gene": "FGL1 (GeneID 2267)", "PubChem SID": "SID329573644", "z-score vs non-targeting control": -0.778, "activity call": "inactive"}
{"gene": "CD274 (GeneID 29126)", "PubChem SID": "SID329578676", "z-score vs non-targeting control": 0.932, "activity call": "inactive"}
{"gene": "MCMBP (GeneID 79892)", "PubChem SID": "SID329581062", "z-score vs non-targeting control": -0.42, "activity call": "inactive"}
{"gene": "TMEM176A (GeneID 55365)", "PubChem SID": "SID329579713", "z-score vs non-targeting control": 1.02, "activity call": "active"}
{"gene": "TXNL4B (GeneID 54957)", "PubChem SID": "SID329579489", "z-score vs non-targeting control": -1.48, "activity call": "active"}
{"gene": "CD7 (GeneID 924)", "PubChem SID": "SID329573058", "z-score vs non-targeting control": -1.54, "activity call": "active"}
{"gene": "POLI (GeneID 11201)", "PubChem SID": "SID329577599", "z-score vs non-targeting control": -1.27, "activity call": "active"}
{"gene": "ARL6IP5 (GeneID 10550)", "PubChem SID": "SID329577230", "z-score vs non-targeting control": 0.0229, "activity call": "inactive"}
{"gene": "EQTN (GeneID 54586)", "PubChem SID": "SID329579341", "z-score vs non-targeting control": -1.56, "activity call": "active"}
